Values from PubChem BioAssay AID624099 (ICCB-Longwood, 2012).
This is one part, drawn at random, of about 21,000 deposited reagents. 497 of them (2.4%) count as active. 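Higher z means weaker E2 silencing; only reporter increases were scored, and knock-downs that hurt cell survival may mask genuine repressor factors.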 A number with no mark means an inactive call.

Assay: 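Host factors E2 relies on to silence an HPV18 LCR reporter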 (primary screen)
System: human C33A cervical carcinoma cells (HPV-negative) stably expressing BPV1 E2 and an HPV18 LCR luciferase reporter
Reagents: siRNA pool against human genes, 40 nM
Time to read-out: 72 h
Read-out: 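Per-well luciferase luminescence, z-scored on each plate against the plate mean and SD with control wells left out, then averaged across three replicate plates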
Reading the numbers: mean z-score and z-score: higher = stronger reporter signal, weaker E2 silencing
Call rule: 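Mean z ≥ 2 together with z ≥ 2 in two or more of the three replicates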

The opening 2 entries, ahead of the listing:
no.	gene	PubChem SID	mean z-score	z-score, replicate A	z-score, replicate B	z-score, replicate C
1	FAM167A-AS1	SID134319248	0.42	0.54	0.33	0.4
2	DNMBP	SID134326508	-1.57	-1.34	-1.72	-1.66

The list itself, repeating the preview:
no.	gene	PubChem SID	mean z-score	z-score, replicate A	z-score, replicate B	z-score, replicate C
1	FAM167A-AS1	SID134319248	0.42	0.54	0.33	0.4
2	DNMBP	SID134326508	-1.57	-1.34	-1.72	-1.66
3	S100A8	SID134316088	2.1 (active)	2.44	2.15	1.71
4	PDGFB	SID134316068	-0.63	-0.71	-0.56	-0.64
5	TREM2	SID134324837	-1	-0.95	-1.19	-0.87
6	TSPYL3	SID134321809	-1.59	-1.7	-1.72	-1.35
7	MANEA	SID134318554	-0.84	-0.58	-1.13	-0.8
8	ADRA1D	SID134310877	0.17	0.15	0.24	0.13
9	POTEB3	SID134329521	0.49	0.27	0.35	0.83
10	UGT2B17	SID134323926	-0.31	-0.31	-0.32	-0.3
11	LOC339782 (retired record)	SID134325599	-0.48	-0.44	-0.46	-0.54
12	HLA-DPB1	SID134317461	-1.24	-1.3	-1.41	-1.01
13	SOX1	SID134316483	0.93	0.83	0.9	1.07
14	PMEL	SID134317022	-0.49	-0.53	-0.62	-0.32
15	CLUH	SID134314776	-1.38	-1.48	-1.36	-1.3
16	DTHD1	SID134327406	-0.63	-0.43	-0.7	-0.76
17	PLPP4	SID134326517	-0.1	0.29	-0.17	-0.42
18	RAB4B	SID134313634	-1.54	-1.74	-1.7	-1.17
19	LOC145414 (retired record)	SID134325230	-0.78	-0.68	-1.09	-0.57
20	EFCAB5	SID134329295	0.1	-0.14	0.25	0.19
21	CCDC88C	SID134325246	0.64	0.4	0.8	0.71
22	LOC440867 (retired record)	SID134329861	-0.26	-0.22	-0.3	-0.26
23	ATG4C	SID134311215	-0.46	-0.22	-0.68	-0.48
